Assays:
Experiment in all cases: Thermal proteome profiling (TPP)
[1] = tested on: HCON_00134350; format: binding, Haemonchus contortus; settings: compound 50 μM, H. contortus lysate, 37-67 °C
[2] = tested on: HCON_00021470; format: binding, Haemonchus contortus; settings: compound 50 μM, H. contortus lysate, 37-67 °C
[3] = tested on: HCON_00099760; format: binding, Haemonchus contortus; settings: compound 50 μM, H. contortus lysate, 37-67 °C
[4] = tested on: F30A10.9; format: binding, Caenorhabditis elegans; settings: compound 50 μM, C. elegans lysate, 37-67 °C
[5] = tested on: F15B9.8; format: binding, Caenorhabditis elegans; settings: compound 50 μM, C. elegans lysate, 37-67 °C
[6] = tested on: PINN-4; format: binding, Caenorhabditis elegans; settings: compound 50 μM, C. elegans lysate, 37-67 °C
[7] = tested on: D1086.10; format: binding, Caenorhabditis elegans; settings: compound 50 μM, C. elegans lysate, 37-67 °C
[8] = tested on: H14N18.4; format: binding, Caenorhabditis elegans; settings: compound 50 μM, C. elegans lysate, 37-67 °C
[9] = tested on: DNC-4; format: binding, Caenorhabditis elegans; settings: compound 50 μM, C. elegans lysate, 37-67 °C
[10] = tested on: GST-15; format: binding, Caenorhabditis elegans; settings: compound 50 μM, C. elegans lysate, 37-67 °C
[11] = tested on: ZNF-598; format: binding, Caenorhabditis elegans; settings: compound 50 μM, C. elegans lysate, 37-67 °C
[12] = tested on: C01G6.4; format: binding, Caenorhabditis elegans; settings: compound 50 μM, C. elegans lysate, 37-67 °C

Measured: thermal stability of protein in the presence of compound

C(#Cc1ccc(-c2ccn[nH]2)cc1)c1ccccc1 [UMW-9729]
stabilised: [1] | [2] | [3] | [4] | [5] | [6] | [7] | [8] | [9] | [10] | [11] | [12]
